Measured values from several laboratories, pooled; numbers as filed in NIAID ChemDB.

Common to all: tests in culture; agent: Candida krusei

A number after MIC or MFC names an inhibition level or a share of isolates. Percent inhibition refers to the dose given; in toxicity tests it is the harm to the cells. An empty or dashed field is not shown. Neighbouring rows are from separate reports.

SMILES,strain,read by,read-out,tested at,value
CC(O)Cn1cc(CN2CCN([C@H](C)[C@](O)(Cn3cncn3)c3ccc(F)cc3F)CC2)c2cccc(Cl)c21,ATCC 6258,resazurin,MIC80,,16 µg/mL
Clc1ccc(C(c2ccccc2)n2cnc3ccccc32)cc1,,agar,MIC90,,>256 µg/mL
C[C@@H](N1CCN(Cc2cn(Cc3ccc(Cl)cc3Cl)c3cc(Cl)ccc23)CC1)[C@](O)(Cn1cncn1)c1ccc(F)cc1F,ATCC 6258,resazurin,MIC80,,2 µg/mL
C[C@@H](c1ncncc1F)[C@](O)(Cn1cncn1)c1ccc(F)cc1F,,broth dilution,MIC50,,0.25 µg/mL
CN(CC(=O)Nc1cc(Cl)ccc1Cl)CC(O)(Cn1cncn1)c1ccc(F)cc1F,,,MIC80,,0.0625 µg/mL
C[C@@H](N1CCN(Cc2cn(Cc3ccc(F)cc3F)c3cc(N=[N+]=[N-])ccc23)CC1)[C@](O)(Cn1cncn1)c1ccc(F)cc1F,ATCC 6258,resazurin,MIC80,,1 µg/mL
Cc1ccc(NC(=O)CN(C)CC(O)(Cn2cncn2)c2ccc(F)cc2F)cc1C,,,MIC80,,4 µg/mL
CC(C)(O)c1cn(-c2ccc([N+](=O)[O-])cc2)nn1,URM 109,broth dilution,inhibition,2048 µg/mL,0%
CCCCCCCCCCCCCCCCn1cc[n+](COCCCCCCOC[n+]2ccn(CCCCCCCCCCCCCCCC)c2)c1,ATCC 6258,agar diffusion,MIC100,,6 µM
C[C@@H](N1CCN(Cc2cn(Cc3ccc(Cl)cc3)c3ccccc23)CC1)[C@](O)(Cn1cncn1)c1ccc(F)cc1F,ATCC 6258,resazurin,MIC80,,1 µg/mL
CCCCCOc1ccc(-c2cc(-c3ccc(C(=O)N[C@H]4C[C@@H](O)[C@@H](O)NC(=O)[C@@H]5[C@@H](O)[C@@H](C)CN5C(=O)[C@H]([C@H](O)CC(N)=O)NC(=O)[C@H]([C@H](O)[C@@H](O)c5ccc(O)c(OS(=O)(=O)O)c5)NC(=O)[C@@H]5C[C@@H](O)CN5C(=O)[C@H]([C@@H](C)O)NC4=O)cc3)no2)cc1,,broth dilution,MIC50,,0.06 µg/mL
C=CCc1ccc(Cn2cc(CN3CCN([C@H](C)[C@](O)(Cn4cncn4)c4ccc(F)cc4F)CC3)c3cccc(F)c32)cc1,ATCC 6258,resazurin,MIC80,,>128 µg/mL
C[n+]1ccn(COCCCOCn2cc[n+](C)c2)c1,ATCC 6258,agar diffusion,MIC100,,0.237 µM
CC(O)Cc1ccc(Cn2cc(CN3CCN([C@H](C)[C@](O)(Cn4cncn4)c4ccc(F)cc4F)CC3)c3cccc(F)c32)cc1,ATCC 6258,resazurin,MIC80,,64 µg/mL
CCCCCCCCCCCCn1cc[n+](COCCOC[n+]2ccn(CCCCCCCCCCCC)c2)c1,ATCC 6258,agar diffusion,MIC100,,2 µM
C=CCc1ccc(O)c(OC)c1,342,turbidity,MIC90,,500 µg/mL
CC(C)C[C@H](N)C(=O)O,D 206 B,broth dilution,MFC100,,>72000 µg/mL
O=C(c1ccccc1)C(c1ccccc1)n1nnc2ccccc21,,broth dilution,MFC,,>256 µg/mL
CC(C)(O)c1cn(-c2ccc3ccccc3c2)nn1,URM 1059,broth dilution,inhibition,2048 µg/mL,0%
CC(C)CC(=O)C(=O)O,ATCC 6258,broth dilution,MFC100,,>72000 µg/mL
CCCCCn1cc[n+](COCCCCOC[n+]2ccn(CCCCC)c2)c1,ATCC 6258,agar diffusion,MIC100,,1338 µM
O=C(c1ccccc1)C(c1ccccc1)n1cnc2ccccc21,,broth dilution,MFC,,128 µg/mL
CN(CC(=O)Nc1ccc(Br)cc1)CC(O)(Cn1cncn1)c1ccc(F)cc1F,,,MIC80,,16 µg/mL
COc1ccc(C(c2ccc(OC)cc2)n2cncn2)cc1,,broth dilution,MFC,,>256 µg/mL
CC(C)(O)c1cn(-c2cccc3ccccc23)nn1,URM 4802,broth dilution,inhibition,2048 µg/mL,0%
C[C@@H](N1CCN(Cc2cn(Cc3ccc(C(F)(F)F)cc3)c3cc(Cl)ccc23)CC1)[C@](O)(Cn1cncn1)c1ccc(F)cc1F,ATCC 6258,resazurin,MIC80,,1 µg/mL
Cc1ccc(-n2cc(C(C)(C)O)nn2)cc1C,URM 1059,broth dilution,inhibition,2048 µg/mL,0%
COc1cccc(NC(=O)CN(C)CC(O)(Cn2cncn2)c2ccc(F)cc2F)c1,,,MIC80,,64 µg/mL
Clc1ccc(C(c2ccccc2)n2ccnc2)cc1,,agar,MIC90,,0.5 µg/mL
CCC(C)CC(C)CCCCCCCCC(=O)N[C@H]1C[C@@H](O)[C@H](NCCN)NC(=O)[C@@H]2[C@@H](O)CCN2C(=O)[C@H]([C@H](O)CCN)NC(=O)[C@H]([C@H](O)[C@@H](O)c2ccc(O)cc2)NC(=O)[C@@H]2C[C@@H](O)CN2C(=O)[C@H]([C@@H](C)O)NC1=O,DPL45,broth dilution,MIC50,,8 µg/mL
CCCCCCCCCn1cc[n+](COCCCCCCOC[n+]2ccn(CCCCCCCCC)c2)c1,ATCC 6258,agar diffusion,MIC100,,4 µM
CN(CC(=O)Nc1ccc(F)cc1)CC(O)(Cn1cncn1)c1ccc(F)cc1F,,,MIC80,,64 µg/mL

Repeating the final 2 entries:

SMILES,strain,read by,read-out,tested at,value
CCCCCCCCCn1cc[n+](COCCCCCCOC[n+]2ccn(CCCCCCCCC)c2)c1,ATCC 6258,agar diffusion,MIC100,,4 µM
CN(CC(=O)Nc1ccc(F)cc1)CC(O)(Cn1cncn1)c1ccc(F)cc1F,,,MIC80,,64 µg/mL